{"source": "PubChem BioAssay AID1259414 (Drosophila RNAi Screening Center, 2018)", "assay": "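Genome-wide screen for host control of endosymbiont load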 (primary screen)", "cells": "Drosophila JW18 cells infected with Wolbachia", "reagents": "long dsRNA against Drosophila genes, 0.25 µg dsRNA per well of a 384-well plate", "time to read-out": "5 days", "conditions": "cells persistently infected with Wolbachia before knock-down; no added drug", "measurement": "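Automated imaging of bacterial rRNA staining divided by host cell count, reported as plate-normalised robust z-score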", "reading the numbers": "Wolbachia per cell robust z: higher = more Wolbachia per host cell than the plate typical", "call rule": "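Hit when robust z is 1.5 or more, or -1.5 or less, in at least two of three replicates; excludes dsRNAs with several or no targets, genes not expressed in JW18 and well A1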", "note": "The deposit covers about 24,000 reagents; below is an unselected part of those that have a named target and a result. Over the whole deposit, about 1,210 (5%) got an active call. 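Inactive calls also include excluded dsRNAs with several or no targets, genes unexpressed in JW18, and well A1, regardless of score.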"}
{"gene": "CG9451", "amplicon": "DRSC11074", "Wolbachia per cell robust z, rep 1": -0.67, "Wolbachia per cell robust z, rep 2": -0.494, "Wolbachia per cell robust z, rep 3": -0.466, "activity call": "inactive"}
{"gene": "CG9451", "amplicon": "DRSC26098", "Wolbachia per cell robust z, rep 1": -0.0807, "Wolbachia per cell robust z, rep 2": 0.371, "Wolbachia per cell robust z, rep 3": -0.852, "activity call": "inactive"}
{"gene": "CG9451", "amplicon": "DRSC41607", "Wolbachia per cell robust z, rep 1": -0.314, "Wolbachia per cell robust z, rep 2": 0.403, "Wolbachia per cell robust z, rep 3": -0.194, "activity call": "inactive"}
{"gene": "Alr", "amplicon": "DRSC19469", "Wolbachia per cell robust z, rep 1": -0.151, "Wolbachia per cell robust z, rep 2": -0.808, "Wolbachia per cell robust z, rep 3": -1.02, "activity call": "inactive"}
{"gene": "CG3635", "amplicon": "DRSC03729", "Wolbachia per cell robust z, rep 1": 0.0837, "Wolbachia per cell robust z, rep 2": 1.03, "Wolbachia per cell robust z, rep 3": 1.34, "activity call": "inactive"}
{"gene": "Cpr64Ab", "amplicon": "DRSC08461", "Wolbachia per cell robust z, rep 1": -0.252, "Wolbachia per cell robust z, rep 2": -0.845, "Wolbachia per cell robust z, rep 3": -0.347, "activity call": "inactive"}
{"gene": "Cpr64Ab", "amplicon": "DRSC25195", "Wolbachia per cell robust z, rep 1": 1.92, "Wolbachia per cell robust z, rep 2": 0.144, "Wolbachia per cell robust z, rep 3": 0.749, "activity call": "inactive"}
{"gene": "rols", "amplicon": "DRSC09873", "Wolbachia per cell robust z, rep 1": 0.34, "Wolbachia per cell robust z, rep 2": -0.898, "Wolbachia per cell robust z, rep 3": -0.14, "activity call": "inactive"}
{"gene": "rols", "amplicon": "DRSC10254", "Wolbachia per cell robust z, rep 1": -0.544, "Wolbachia per cell robust z, rep 2": -0.183, "Wolbachia per cell robust z, rep 3": 0.415, "activity call": "inactive"}
{"gene": "rols", "amplicon": "DRSC10536", "Wolbachia per cell robust z, rep 1": -0.837, "Wolbachia per cell robust z, rep 2": -1.93, "Wolbachia per cell robust z, rep 3": -3.95, "activity call": "active"}
{"gene": "rols", "amplicon": "DRSC40704", "Wolbachia per cell robust z, rep 1": 1.31, "Wolbachia per cell robust z, rep 2": -0.0342, "Wolbachia per cell robust z, rep 3": -1.46, "activity call": "inactive"}
{"gene": "scramb2", "amplicon": "DRSC08543", "Wolbachia per cell robust z, rep 1": -1.38, "Wolbachia per cell robust z, rep 2": -0.27, "Wolbachia per cell robust z, rep 3": -0.418, "activity call": "inactive"}
{"gene": "scramb2", "amplicon": "DRSC26609", "Wolbachia per cell robust z, rep 1": 0.615, "Wolbachia per cell robust z, rep 2": 0.477, "Wolbachia per cell robust z, rep 3": 1.29, "activity call": "inactive"}
{"gene": "Lrp4", "amplicon": "DRSC20118", "Wolbachia per cell robust z, rep 1": 0.518, "Wolbachia per cell robust z, rep 2": -5.76, "Wolbachia per cell robust z, rep 3": 1.68, "activity call": "inactive"}
{"gene": "Fdh", "amplicon": "DRSC16670", "Wolbachia per cell robust z, rep 1": -1.7, "Wolbachia per cell robust z, rep 2": -0.863, "Wolbachia per cell robust z, rep 3": -0.642, "activity call": "inactive"}
{"gene": "CG3386", "amplicon": "DRSC08566", "Wolbachia per cell robust z, rep 1": -0.787, "Wolbachia per cell robust z, rep 2": -1.08, "Wolbachia per cell robust z, rep 3": -0.938, "activity call": "inactive"}
{"gene": "CG3386", "amplicon": "DRSC28282", "Wolbachia per cell robust z, rep 1": 1.1, "Wolbachia per cell robust z, rep 2": 0.117, "Wolbachia per cell robust z, rep 3": 0.149, "activity call": "inactive"}
{"gene": "CG11885", "amplicon": "DRSC00329", "Wolbachia per cell robust z, rep 1": -1.89, "Wolbachia per cell robust z, rep 2": 0.208, "Wolbachia per cell robust z, rep 3": -1.42, "activity call": "inactive"}
{"gene": "Obp19b", "amplicon": "DRSC20536", "Wolbachia per cell robust z, rep 1": -1.56, "Wolbachia per cell robust z, rep 2": -1.73, "Wolbachia per cell robust z, rep 3": -3.27, "activity call": "inactive"}
{"gene": "Obp19b", "amplicon": "DRSC28944", "Wolbachia per cell robust z, rep 1": -0.567, "Wolbachia per cell robust z, rep 2": -0.0578, "Wolbachia per cell robust z, rep 3": -0.704, "activity call": "inactive"}
{"gene": "CG14708", "amplicon": "DRSC14930", "Wolbachia per cell robust z, rep 1": -0.0946, "Wolbachia per cell robust z, rep 2": -0.183, "Wolbachia per cell robust z, rep 3": 0.365, "activity call": "inactive"}
{"gene": "CG14708", "amplicon": "DRSC25906", "Wolbachia per cell robust z, rep 1": -0.76, "Wolbachia per cell robust z, rep 2": 0.502, "Wolbachia per cell robust z, rep 3": 0.309, "activity call": "inactive"}
{"gene": "Trf4-2", "amplicon": "DRSC15237", "Wolbachia per cell robust z, rep 1": 0.534, "Wolbachia per cell robust z, rep 2": -1.55, "Wolbachia per cell robust z, rep 3": 0.392, "activity call": "inactive"}
{"gene": "Trf4-2", "amplicon": "DRSC25949", "Wolbachia per cell robust z, rep 1": 0.124, "Wolbachia per cell robust z, rep 2": 0.973, "Wolbachia per cell robust z, rep 3": 0.048, "activity call": "inactive"}
{"gene": "Uhg1", "amplicon": "DRSC26214", "Wolbachia per cell robust z, rep 1": -1.09, "Wolbachia per cell robust z, rep 2": -2.61, "Wolbachia per cell robust z, rep 3": 0.076, "activity call": "inactive"}
{"gene": "CG13891", "amplicon": "DRSC08361", "Wolbachia per cell robust z, rep 1": 0.446, "Wolbachia per cell robust z, rep 2": -1.16, "Wolbachia per cell robust z, rep 3": 0.407, "activity call": "inactive"}
{"gene": "CG13891", "amplicon": "DRSC25733", "Wolbachia per cell robust z, rep 1": 0.833, "Wolbachia per cell robust z, rep 2": 1.24, "Wolbachia per cell robust z, rep 3": -0.416, "activity call": "inactive"}
{"gene": "CG12766", "amplicon": "DRSC08295", "Wolbachia per cell robust z, rep 1": 0.121, "Wolbachia per cell robust z, rep 2": 0.538, "Wolbachia per cell robust z, rep 3": -0.479, "activity call": "inactive"}
{"gene": "Ugt36E1", "amplicon": "DRSC02599", "Wolbachia per cell robust z, rep 1": -0.29, "Wolbachia per cell robust z, rep 2": 0.291, "Wolbachia per cell robust z, rep 3": 0.299, "activity call": "inactive"}
{"gene": "CG33284", "amplicon": "DRSC22905", "Wolbachia per cell robust z, rep 1": 0.0685, "Wolbachia per cell robust z, rep 2": 0.797, "Wolbachia per cell robust z, rep 3": -0.182, "activity call": "inactive"}
{"gene": "CG33284", "amplicon": "DRSC29777", "Wolbachia per cell robust z, rep 1": -6.76, "Wolbachia per cell robust z, rep 2": 0.515, "Wolbachia per cell robust z, rep 3": 0.542, "activity call": "inactive"}

2 of these entries, set out differently:
gene,amplicon,"Wolbachia per cell robust z, rep 1","Wolbachia per cell robust z, rep 2","Wolbachia per cell robust z, rep 3",activity call
Fdh,DRSC16670,-1.7,-0.863,-0.642,inactive
CG3386,DRSC08566,-0.787,-1.08,-0.938,inactive
